Anti-infective test results gathered from many reports (values: NIAID ChemDB through PubChem).

All rows: host cell toxicity; cells: H9; endpoint: CC50

Rows are shuffled and stem from different studies. CCn: concentration that lowers growth or viability of the cells by n%.

structure	result
CC(C)[C@@H]1CC[C@]2(C(=O)O)CC[C@]3(C)[C@H](CC[C@@H]4[C@@]5(C)CC[C@H](OC(=O)COCC(=O)O)C(C)(C)[C@@H]5CC[C@]43C)[C@@H]12	13.1 µM
CCn1ccc(=O)c2cnc(-c3ccncc3)nc21	50 µM
CC(C)CC(=O)O[C@H]1CC[C@]2(C)[C@H]3CC=C4[C@@H]5[C@@H](C)[C@H](C)CC[C@]5(C(=O)O)CC[C@@]4(C)[C@]3(C)CC[C@H]2C1(C)C	>18.5 µM
C=C(C)[C@@H]1CC[C@]2(COC(=O)CCC(=O)O)CC[C@]3(C)[C@H](CC[C@@H]4[C@@]5(C)CC[C@H](OC(=O)CCC(=O)O)C(C)(C)[C@@H]5CC[C@]43C)[C@@H]12	35.3 µM
C[C@H](CCC(=O)N[C@@H](Cc1cc(I)c(O)cc1I)C(=O)O)[C@H]1CC[C@H]2[C@@H]3[C@H](O)CC4C[C@H](O)CC[C@]4(C)[C@H]3CC[C@]12C	>500 µg/mL
NCCCC(NC(=O)CCCCCCCCN=C(N)N)C(O)CCCCCCCCN=C(N)N	>1000 µg/mL
C=C(C)[C@@H]1CC[C@]2(COC(=O)CCCC(=O)O)CC[C@]3(C)[C@H](CC[C@@H]4[C@@]5(C)CC[C@H](OC(=O)CCCC(=O)O)C(C)(C)[C@@H]5CC[C@]43C)[C@@H]12	25.8 µM
C[C@H]1[C@H](C)CC[C@]2(C(=O)O)CC[C@]3(C)C(=CC[C@@H]4[C@@]5(C)CC[C@H](OC(=O)CC(C)(C)C(=O)O)C(C)(C)[C@@H]5CC[C@]43C)[C@H]12	49.5 µM
Cc1cn([C@H]2C[C@H](F)[C@@H](CO)O2)c(=O)[nH]c1=O	5.7 µM
C=C(C)[C@@H]1CC[C@]2(COC(=O)CC(C)(C)C(=O)O)CC[C@@H]3[C@H](CC[C@H]4[C@H]3CC[C@H]3C(C)(C)[C@@H](OC(=O)C(C)(C)CC(=O)O)CC[C@]43C)[C@@H]12	38.6 µM
Nc1ncnc2c1ncn2[C@@H]1O[C@H](CO)C[C@H]1N1CCOCC1	>40 µM
CC(=O)OC[C@]12[C@H](OC(C)=O)[C@H](OC(C)=O)[C@@H]3[C@@H](OC(=O)c4ccccc4)[C@@]14O[C@@]3(C)COC(=O)c1cccnc1[C@@H](C)[C@H](C)C(=O)O[C@@H]([C@H](OC(C)=O)[C@@H]2OC(C)=O)C4(C)O	56.8 µg/mL
CC(C)Nc1cccnc1N1CCN(C(=O)c2cc3cc(F)ccc3[nH]2)CC1	>10 µM
COc1ccc2c(c1OC)C(CC(C)=O)N(C)c1c-2ccc2cc3c(cc12)OCO3	25.8 µM
C/C=C(/C)C(=O)O[C@@H]1c2c(ccc3ccc(=O)oc23)OC(C)(C)[C@@H]1OC(C)=O	20.7 µM
C=C(C)[C@@H]1CC[C@]2(COC(=O)CC3(CC(=O)O)CCCC3)CC[C@]3(C)[C@H](CC[C@@H]4[C@@]5(C)CCC(=O)C(C)(C)[C@@H]5CC[C@]43C)[C@@H]12	12.8 µM
CC1=CCC[C@H]2[C@](C)(Cc3cc(O)ccc3O)[C@@H](C)CC[C@]12C	>5 µg/mL
C=C(C)[C@@H]1CC[C@]2(C(=O)O)CC[C@]3(C)[C@H](CC[C@@H]4[C@@]5(C)CC[C@H](OC(=O)COCC(=O)O)C(C)(C)[C@@H]5CC[C@]43C)[C@@H]12	11.7 µM
Cn1ccc(=O)c2cnc(-c3ccncc3)nc21	>100 µM
COc1c2c(c(Br)c3c1-c1c(c(Br)c4c(c1OC)OCO4)C[C@H](C)[C@H](C)C3)OCO2	>100 µg/mL
COc1ccc([C@H]2c3c(cc4c(c3OC)OCO4)C[C@H]3CSC[C@@H]32)cc1OCc1ccccc1	840 µM
CCc1cc(CCc2nc3ccccc3o2)c(=O)[nH]c1C	>0.06 µM
CC1(C)Oc2ccc3ccc(=O)oc3c2[C@@H](OC(=O)C23CCC(C)(C(=O)O2)C3(C)C)[C@H]1OC(=O)C12CCC(C)(C(=O)O1)C2(C)C	54.7 µM
CC(=O)O[C@@H]1[C@@H]2[C@@H](OC(C)=O)[C@@]34O[C@@]2(C)COC(=O)c2cnccc2[C@@H](C)[C@@](C)(O)C(=O)O[C@@H]([C@H](OC(C)=O)[C@H](OC(C)=O)[C@@]3(COC(=O)c2ccoc2)[C@@H]1OC(C)=O)C4(C)O	>100 µg/mL
C=C(C)[C@@H]1CC[C@]2(C(=O)O)CC[C@]3(C)[C@H](CC[C@@H]4[C@@]5(C)CC[C@H](OC(=O)CC(C)(C)C(=O)O)C(C)(C)[C@@H]5CC[C@]43C)[C@@H]12	>7 µM
C=C(C)[C@@H]1CC[C@]2(COC(=O)CC(C)(C)C(=O)O)CC[C@@H]3[C@H](CC[C@H]4[C@H]3CC[C@H]3C(C)(C)[C@@H](OC(=O)CC(C)(C)C(=O)O)CC[C@]43C)[C@@H]12	33.6 µM
C[C@H]1[C@H](C)CC[C@]2(C(=O)O)CC[C@]3(C)C(=CC[C@@H]4[C@@]5(C)CC[C@H](OC(=O)COCC(=O)O)C(C)(C)[C@@H]5CC[C@]43C)[C@H]12	48.2 µM
CCCCCn1ccc(=O)c2cnc(-c3ccncc3)nc21	25 µM
COc1c(Br)c2c(c(OC)c1OC)-c1c(c(Br)c(OC)c(OC)c1OC)C[C@](C)(O)[C@@H](C)C2	25 µg/mL
CC1(C)Oc2ccc3ccc(=O)oc3c2[C@H](OC(=O)C23CCC(C)(C(=O)O2)C3(C)C)[C@H]1OC(=O)C12CCC(C)(C(=O)O1)C2(C)C	160 µM
COc1c(Br)c2c(c(OC)c1OC)-c1c(c(Br)c3c(c1OC)OCO3)C[C@@H](C)[C@@H](C)C2	20 µg/mL
C=C(C)[C@@H]1CC[C@]2(COC(C)=O)CC[C@]3(C)[C@H](CC[C@@H]4[C@@]5(C)CC[C@H](OC(C)=O)C(C)(C)[C@@H]5CC[C@]43C)[C@@H]12	>189.8 µM
Nc1ncnc2c1ncn2[C@@H]1O[C@H](COC2(c3ccccc3)c3ccccc3Oc3ccccc32)[C@@H](OC2(c3ccccc3)c3ccccc3Oc3ccccc32)[C@H]1OC1CCCCO1	>100 µM
Cc1cn([C@H]2C[C@H](N=[N+]=[N-])[C@@H](CO)O2)c(=O)[nH]c1=O	500 µg/mL
C=C(C)[C@@H]1CC[C@]2(/C=N/O)CC[C@]3(C)[C@H](CC[C@@H]4[C@@]5(C)CC/C(=N\O)C(C)(C)[C@@H]5CC[C@]43C)[C@@H]12	5.47 µM
CC(C)CC(=O)OC1C(OC(=O)c2cccc(Cl)c2)c2c(ccc3ccc(=O)oc23)OC1(C)C	13.02 µM
CC1(C)CC[C@]2(C(=O)O)CC[C@]3(C)C(=CC[C@@H]4[C@@]5(C)CC[C@H](OC(=O)CC(C)(C)C(=O)O)C(C)(C)[C@@H]5CC[C@]43C)[C@@H]2C1	19.2 µM
CCc1cn([C@@H]2C[C@H](F)[C@@H](CO)O2)c(=O)[nH]c1=O	400 µM
O=c1cc[nH]c2nc(-c3ccncc3)ncc12	>100 µM
COc1c2c(cc3c1[C@H](c1ccc(O)c(Oc4ccccc4)c1)[C@H]1C(=O)OC[C@@H]1C3)OCO2	454 µM
COc1c2c(cc3c1-c1c(cc4c(c1OC)OCO4)C(OC(=O)c1ccccc1)[C@@](C)(O)[C@@H](C)C3)OCO2	55 µg/mL

For reference, 4 entries again:

structure,result
CC(C)CC(=O)O[C@H]1CC[C@]2(C)[C@H]3CC=C4[C@@H]5[C@@H](C)[C@H](C)CC[C@]5(C(=O)O)CC[C@@]4(C)[C@]3(C)CC[C@H]2C1(C)C,>18.5 µM
Cn1ccc(=O)c2cnc(-c3ccncc3)nc21,>100 µM
CC(=O)O[C@@H]1[C@@H]2[C@@H](OC(C)=O)[C@@]34O[C@@]2(C)COC(=O)c2cnccc2[C@@H](C)[C@@](C)(O)C(=O)O[C@@H]([C@H](OC(C)=O)[C@H](OC(C)=O)[C@@]3(COC(=O)c2ccoc2)[C@@H]1OC(C)=O)C4(C)O,>100 µg/mL
C=C(C)[C@@H]1CC[C@]2(COC(=O)CCCC(=O)O)CC[C@]3(C)[C@H](CC[C@@H]4[C@@]5(C)CC[C@H](OC(=O)CCCC(=O)O)C(C)(C)[C@@H]5CC[C@]43C)[C@@H]12,25.8 µM